Assay [1] has as its system influenza A/PR/8 (H1N1) virus (500 pfu/mouse). As to conditions: in vivo.
Another assay relates to Duck/MN/1525/81. The assay is classed as cell-based. The settings on record: Table 7.
Assay [2] deals with A/California/04/2009 (H1N1). The settings on record: mouse, in vivo.
Another assay concerns A/Duck/MN/1525/81 (H5N1). As to conditions: mouse, in vivo.
The subject of a further assay is B/Sichuan/379/99 (FluB). The settings on record: mouse, in vivo.
For the next assay, the system named is A/Sydney/250/99. As to the kind of experiment: microbe, parasite or virus in culture. The format is cell-based. The settings on record: unidentified influenza virus; Table 8; means of at least three determinations.
The next assay relates to A/Solomon Island/3/06. As to the kind of experiment: microbe, parasite or virus in culture. The settings on record: unidentified influenza virus; Table 8; means of at least three determinations. The assay is classed as cell-based.
In the next assay the test system is A/Townsville/74/2011. As to the kind of experiment: microbe, parasite or virus in culture. As to conditions: unidentified influenza virus; Table 8; means of at least three determinations. The format is cell-based.
The subject of a further assay is A/Mississippi/03/01 WT. The assay can be described thus: microbe, parasite or virus in culture. The settings on record: unidentified influenza virus, read-out: EC50 A/Mississippi/03/01 WT. The format is cell-based.
The next assay concerns A/Perth/261/2009. As to the kind of experiment: microbe, parasite or virus in culture. The assay is classed as cell-based. As to conditions: unidentified influenza virus; Table 8; means of at least three determinations.
The next assay relates to A/Victoria/170/2012. As to the kind of experiment: microbe, parasite or virus in culture. The format is cell-based. As to conditions: unidentified influenza virus; Table 8; means of at least three determinations.
For another assay, the system named is A/Sydney/5/97. As to the kind of experiment: microbe, parasite or virus in culture. The format is cell-based. The settings on record: unidentified influenza virus; Table 8; means of at least three determinations.
In the next assay the test system is A/Victoria/503/06. The assay can be described thus: microbe, parasite or virus in culture. The format is cell-based. The settings on record: unidentified influenza virus; Table 8; means of at least three determinations.
The next assay has as its system B/Townsville/2/2011. The assay can be described thus: microbe, parasite or virus in culture. The format is cell-based. The settings on record: unidentified influenza virus; Table 8; means of at least three determinations.
For assay [3], the system named is influenza A/PR/8 (H1N1) virus (500 pfu/mouse). As to conditions: in vivo. The source holds these as a separate data set.

Molecules are shown by their SMILES. In brackets after ≈: the same amount, converted by molar mass. Several values for one entry are separate records, joined by “and”; a condition that tells them apart may be missing. Equal values may be shown once. Read-outs that look alike come from different tables or passages of the source.

The record followed here is patent US11007274B2, “Compounds for medicinal applications” (Ausvir Therapeutics Pty LTD, priority 2015, dated 2021).

As to `CC(=O)N[C@H]1[C@H]([C@H](O)[C@H](O)CO)OC(C(=O)O)=C[C@@H]1NC(=N)N` [Zanarnivir], the Survivors/Total in assay [1] is reported as 0/5.

For the compound `CC(=O)N[C@H]1[C@H]([C@H](OC(=O)NCCCCNC(=O)c2cc(C(=O)NCCCCNC(=O)O[C@@H]([C@@H]3OC(C(=O)O)=C[C@H](N=C(N)N)[C@H]3NC(C)=O)[C@H](O)CO)c(C(=O)N[C@H](CC(=O)NCS(=O)(=O)O)C(=O)NCS(=O)(=O)O)cc2C(=O)N[C@H](CC(=O)NCS(=O)(=O)O)C(=O)NCS(=O)(=O)O)[C@H](O)CO)OC(C(=O)O)=C[C@@H]1N=C(N)N` [MD219, PK2 PYR(Zb)2[(D-Asp)(NHCH2SO3H)2]2], in the assay on Duck/MN/1525/81, the “EC50 Duck/MN/1525/81” value is 0.5 ng/mL (≈ 0.292 nM).

Turning to `CC(=O)N[C@H]1[C@H]([C@H](OC(=O)NCCCCCCCCNC(=O)[C@@H]2C[C@H](C(=O)NCCCCCCCCNC(=O)O[C@@H]([C@@H]3OC(C(=O)O)=C[C@H](N=C(N)N)[C@H]3NC(C)=O)[C@H](O)CO)C[C@H](C(=O)N[C@@H](CC(=O)NCS(=O)(=O)O)C(=O)NCS(=O)(=O)O)C2)[C@H](O)CO)OC(C(=O)O)=C[C@@H]1N=C(N)N` [MD154, CHTCA(Z0)2-L-Asp(NHCH2SO3H)2], the “EC50 Duck/MN/1525/81” value in the assay with Duck/MN/1525/81 was less than 0.13 ng/mL. Further, the Mice survivors/total in assay [2] was 10/10 and 4/10; in the assay on A/Duck/MN/1525/81 (H5N1), 10/10 and 9/10 and 6/10; in the assay with B/Sichuan/379/99 (FluB), 10/10 and 9/10.

For the compound `CC(=O)N[C@H]1[C@H]([C@H](OC(=O)NCCCCCCCCCNC(=O)c2cc(C(=O)NCCCCCCCCCNC(=O)O[C@@H]([C@@H]3OC(C(=O)O)=C[C@H](NC(=N)N)[C@H]3NC(C)=O)[C@H](O)CO)c(C(=O)N[C@H](CC(=O)NCS(=O)(=O)O)C(=O)NCS(=O)(=O)O)cc2C(=O)N[C@H](CC(=O)NCS(=O)(=O)O)C(=O)NCS(=O)(=O)O)[C@H](O)CO)OC(C(=O)O)=C[C@@H]1NC(=N)N` [MD185, PK2PYR(Zn)2[(D-Asp)(NHCH2SO3)2]2], the EC50 was determined as 0.29 nM in the assay on A/Sydney/250/99; 0.29 nM in the assay with A/Solomon Island/3/06; 0.74 nM in the assay with A/Townsville/74/2011; 0.89 nM with A/Mississippi/03/01 WT; 0.49 nM in the assay on A/Perth/261/2009; 2.7 nM with A/Victoria/170/2012. Besides, the figures for the EC50 with A/Sydney/5/97, with A/Victoria/503/06 and in the assay with B/Townsville/2/2011 were 2.7 nM, 6.5 nM and 1.7 nM, respectively. In addition, the Mice survivors/total is 10/10 and 9/10 and 4/10 in assay [2]; 10/10 and 8/10 and 7/10 with A/Duck/MN/1525/81 (H5N1); 9/10 and 8/10 in the assay on B/Sichuan/379/99 (FluB); 5/5 and 4/5 in [1]. The “Mean day of death” value in assay [1] is 7.3 days and 7.25 days and 7.5 days. In assay [3], the Survivors/Total is on record as 5/5.

Consider `CC(=O)N[C@H]1[C@H]([C@H](OC(=O)NCCCCCNC(=O)[C@@H]2C[C@H](C(=O)NCCCCCNC(=O)O[C@@H]([C@@H]3OC(C(=O)O)=C[C@H](N=C(N)N)[C@H]3NC(C)=O)[C@H](O)CO)C[C@H](C(=O)N[C@@H](CC(=O)O)C(=O)O)C2)[C@H](O)CO)OC(C(=O)O)=C[C@@H]1N=C(N)N` [MD242, CHTCA(Zp)2-L-Asp], for which the “EC50 Duck/MN/1525/81” value with Duck/MN/1525/81 turned out to be 0.84 ng/mL (≈ 0.691 nM).

In the case of `CC(=O)N[C@H]1[C@H]([C@H](OC(=O)NCCCCCCNC(=O)c2cc(C(=O)O)c(C(=O)NCCCCCCNC(=O)O[C@@H]([C@@H]3OC(C(=O)O)=C[C@H](N=C(N)N)[C@H]3NC(C)=O)[C@H](O)CO)cc2C(=O)O)[C@H](O)CO)OC(C(=O)O)=C[C@@H]1N=C(N)N` [MD015, PK1 PYR(Z)2], in the assay with Duck/MN/1525/81, the “EC50 Duck/MN/1525/81” value is 0.4 ng/mL (≈ 0.343 nM).

Turning to `CC(=O)N[C@H]1[C@H]([C@H](OC(=O)NCCCCCCCCNC(=O)CC(CC(=O)N[C@H](CS(=O)(=O)O)C(=O)N[C@H](CS(=O)(=O)O)C(=O)N[C@H](CS(=O)(=O)O)C(=O)O)C(=O)NCCCCCCCCNC(=O)O[C@@H]([C@@H]2OC(C(=O)O)=C[C@H](N=C(N)N)[C@H]2NC(C)=O)[C@H](O)CO)[C@H](O)CO)OC(C(=O)O)=C[C@@H]1N=C(N)N` (stereo partly drawn) [MD343, PK2 TCA(Z0)2-[D-Cya]3-OH], in assay [1], the Mice survivors/total is 5/5 and 4/5.

Regarding `CC(=O)N[C@H]1[C@H]([C@H](OC(=O)NCCCCCCNC(=O)c2cc(C(=O)NCCCCCCNC(=O)O[C@@H]([C@@H]3OC(C(=O)O)=C[C@H](N=C(N)N)[C@H]3NC(C)=O)[C@H](O)CO)c(C(=O)O)cc2C(=O)O)[C@H](O)CO)OC(C(=O)O)=C[C@@H]1N=C(N)N` [MD016, PK2 PYR(Z)2], the “EC50 Duck/MN/1525/81” value in the assay on Duck/MN/1525/81 came out at 0.6 ng/mL (≈ 0.514 nM).

Regarding `CC(=O)N[C@H]1[C@H]([C@H](OC(=O)NCCCCNC(=O)[C@@H]2C[C@H](C(=O)NCCCCNC(=O)O[C@@H]([C@@H]3OC(C(=O)O)=C[C@H](N=C(N)N)[C@H]3NC(C)=O)[C@H](O)CO)C[C@H](C(=O)N[C@@H](CC(=O)O)C(=O)O)C2)[C@H](O)CO)OC(C(=O)O)=C[C@@H]1N=C(N)N` [MD206, CHTCA(Zb)2-L-Asp], in the assay with Duck/MN/1525/81, the “EC50 Duck/MN/1525/81” value was 0.7 ng/mL (≈ 0.589 nM).
